Results reported in paper PMC9206510, “4′-Fluorouridine is an oral antiviral that blocks respiratory syncytial virus and SARS-CoV-2 replication” (Science (New York, N.y.), 2021).

Tested on: recRSV-A2line19F-[FireSMASh]
Format: cell-based, respiratory syncytial virus
Conditions: 5 μM basolateral 4′-FlU

Molecule `O=c1ccn([C@@H]2O[C@](F)(CO)[C@@H](O)[C@H]2O)c(=O)[nH]1` [4′-FlU, 4′-fluorouridine] has an apical virus titer of 78.18 TCID50.
